Reference: patent publication US5192507A (priority 1991, dated 1993)

System: acetylcholine receptor (AChR)
Test: AChR sensor response (AC impedance) to agent challenge
Assay type: binding, Electrophorus electricus
Settings: agent 5 ug/ml

Question: With Alpha-bungarotoxin as the substance, how does the “% Change with respect to control sensor” value read?
Answer: 0%
